The data set in a line: peptide made by a vendor. The conditions noted are these: whole synthesis, 220 nm.

The values below come from PMC11013444 (Molecules, 2024).

With H-MFYPDSRCRGPSET-OH, the “final HPLC purity” value was more than 95%.
